Measurements reported in PubChem BioAssay AID624099 (ICCB-Longwood, 2012).
In all, the deposit lists about 21,000 reagents; below is a random part of them. In the full data, 497 (2.4%) were called active. 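Higher z means weaker E2 silencing; only reporter increases were scored, and knock-downs that hurt cell survival may mask genuine repressor factors.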 Reagent sequences are not shown.

Test: 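Knock-downs relieving repression by E2 of an HPV18 LCR luciferase reporter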 (primary screen)
Cell system: human C33A cervical carcinoma cells (HPV-negative) stably expressing BPV1 E2 and an HPV18 LCR luciferase reporter
Reagent: siRNA pool against human genes, 40 nM
Time to read-out: 72 h
Detection: 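HPV18 LCR reporter light per well, converted to plate-wise z-scores that exclude control wells, and averaged over triplicate plates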
Direction: mean z-score and z-score: higher = stronger reporter signal, weaker E2 silencing
Call rule: 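Hit if mean z-score reaches 2 and two or more of three replicate z-scores also reach 2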

| gene knocked down | PubChem SID | mean z-score | z-score, replicate A | z-score, replicate B | z-score, replicate C | Outcome |
| --- | --- | --- | --- | --- | --- | --- |
| ARL1 | SID134323067 | -0.35 | -0.42 | -0.23 | -0.38 | inactive |
| OR2C1 | SID134313654 | -0.79 | -0.78 | -0.71 | -0.88 | inactive |
| PDE12 | SID134321845 | 0.38 | 0.45 | 0.34 | 0.36 | inactive |
| SS18 | SID134323787 | -1.23 | -1.25 | -1.47 | -0.99 | inactive |
| LOC389071 (retired record) | SID134327269 | -1.31 | -1.19 | -1.33 | -1.4 | inactive |
| SYT1 | SID134323789 | 0.71 | 0.93 | 0.52 | 0.68 | inactive |
| ABHD14A | SID134324873 | -0.91 | -1.03 | -0.86 | -0.84 | inactive |
| CSH1 | SID134315596 | -0.33 | -0.42 | -0.17 | -0.39 | inactive |
| RPS6KA3 | SID56478478 | -0.29 | -0.09 | -0.3 | -0.47 | inactive |
| ABCA15P | SID134328644 | -1.25 | -1.3 | -1.54 | -0.92 | inactive |
| KPNA7 | SID134329313 | 0.27 | 0.67 | -0.06 | 0.2 | inactive |
| SLC7A4 | SID134312661 | 0.22 | 0.37 | 0.02 | 0.28 | inactive |
| RAB9A | SID134310300 | 0.03 | -0.35 | 0.1 | 0.33 | inactive |
| SMIM29 | SID134321799 | -0.54 | -0.88 | -0.34 | -0.39 | inactive |
| LOC400856 (retired record) | SID134329054 | 0.63 | 0.39 | 0.57 | 0.92 | inactive |
| LETMD1 | SID134320892 | 0.37 | 0.4 | 0.15 | 0.57 | inactive |
| RSRC2 | SID134320141 | -1.52 | -1.32 | -1.52 | -1.73 | inactive |
| PTPRD | SID134313394 | -0.38 | -0.39 | -0.25 | -0.49 | inactive |
| TMEM176A | SID134322966 | -0.24 | -0.19 | -0.34 | -0.18 | inactive |
| C10orf95 | SID134318644 | -3 | -2.82 | -3.4 | -2.78 | inactive |
| LRP12 | SID134314829 | 1.7 | 1.82 | 1.67 | 1.6 | inactive |
| REST | SID134311801 | 0.62 | 0.55 | 0.59 | 0.73 | inactive |
| HEATR5B | SID134325471 | 1.28 | 1.06 | 1.14 | 1.63 | inactive |
| NFIA | SID134313520 | -0.05 | 0.07 | 0.04 | -0.27 | inactive |
| IQCB1 | SID134324810 | -1.04 | -1.08 | -1.15 | -0.89 | inactive |
| MBD5 | SID134326789 | 0.49 | 0.92 | 0.25 | 0.31 | inactive |
| BAZ2A | SID134324167 | 1.23 | 1.16 | 1.25 | 1.29 | inactive |
| STK36 | SID56478968 | 0.91 | 1.09 | 1.03 | 0.63 | inactive |
| PNPLA4 | SID134314846 | -0.18 | -0.13 | -0.17 | -0.25 | inactive |
| PLAU | SID134311424 | -0.13 | -0.5 | 0 | 0.12 | inactive |
| CDY2A | SID134314919 | 0.48 | 0.08 | 0.41 | 0.93 | inactive |
| LINC01116 | SID134327262 | 0.43 | 0.2 | 0.66 | 0.43 | inactive |
| ZNF428 | SID134322505 | 0.04 | 0.27 | -0.35 | 0.22 | inactive |
| TNNT1 | SID134325766 | -0.6 | -0.41 | -0.86 | -0.53 | inactive |
| LOC387833 (retired record) | SID134328381 | 1.26 | 1.04 | 1.36 | 1.39 | inactive |
| NBPF5P | SID134325387 | -1.93 | -1.87 | -2.07 | -1.84 | inactive |
| ABITRAM | SID134320109 | -0.07 | -0.14 | -0.01 | -0.05 | inactive |
| PPP1R11 | SID134316229 | -0.32 | -0.43 | -0.13 | -0.39 | inactive |
| PRDX1 | SID134314911 | -0.54 | -0.81 | -0.5 | -0.33 | inactive |
| CDC45 | SID56478592 | -0.22 | -0.16 | -0.23 | -0.28 | inactive |
| LOC283157 (retired record) | SID134326577 | -0.88 | -1.07 | -0.87 | -0.7 | inactive |
| CKMT1B | SID56479086 | -0.88 | -0.68 | -0.84 | -1.12 | inactive |
| ZDHHC12 | SID134320295 | 0.48 | 0.5 | 0.05 | 0.88 | inactive |
| GSTA3 | SID134321235 | -0.79 | -0.96 | -0.67 | -0.72 | inactive |
| HOXB1 | SID134316015 | 0.7 | 0.81 | 0.52 | 0.76 | inactive |
| KCTD2 | SID134329975 | -0.41 | -0.87 | -0.13 | -0.24 | inactive |
| SAFB2 | SID134324084 | -0.29 | -0.63 | -0.15 | -0.09 | inactive |
| FEM1A | SID134318014 | -1.03 | -1.3 | -0.66 | -1.12 | inactive |
| PIGR | SID134321642 | -1.3 | -1.33 | -1.44 | -1.15 | inactive |
| ITSN1 | SID134313242 | 1.76 | 1.6 | 1.6 | 2.09 | inactive |
| RNASE8 | SID134321111 | 1.19 | 1.29 | 0.98 | 1.32 | inactive |
| CCL4 | SID56479202 | 0.2 | -0.21 | 0.29 | 0.5 | inactive |
| ME3 | SID134313368 | -0.46 | -0.23 | -0.84 | -0.32 | inactive |
| CTH | SID134309919 | -1.17 | -1.46 | -1.37 | -0.68 | inactive |
| SLC39A10 | SID134312611 | -1.07 | -0.9 | -1.3 | -1.01 | inactive |
| ZNF444 | SID134324907 | 0.43 | 0.32 | 1.18 | -0.21 | inactive |
| THSD4 | SID134318615 | -0.45 | -0.65 | -0.58 | -0.12 | inactive |
